Results of unrelated studies side by side (data: NIAID ChemDB).

Common to all: tests in culture; agent: HIV-1; read by: syncytia; read-out: EC50

Rows are shuffled and stem from different studies.

CCn1c(=O)c(C)cn([C@@H]2O[C@H](CO[Si](C)(C)C(C)(C)C)C3(OS(=O)(=O)C=C3N)[C@H]2O[Si](C)(C)C(C)(C)C)c1=O ; strain or isolate: IIIB BHAP(RT-L100I) ; mutations: RT-L100I ; cell line: CEM ; value: 0.08 µg/mL
CCOCn1c(Cc2ccccc2)c(C(C)C)c(=O)[nH]c1=O ; strain or isolate: IIIB ; mutations: RT-M184V ; cell line: CEM ; value: 0.002 µg/mL
CCNc1cccnc1N1CCN(C(=O)c2cc3cc(OC)ccc3[nH]2)CC1 ; strain or isolate: IIIB NEV(RT-V106A) ; mutations: RT-V106A ; cell line: CEM ; value: 0.4 µg/mL
CCc1cc(NCc2nc3c(Cl)ccc(Cl)c3o2)c(=O)[nH]c1C ; strain or isolate: IIIB ; cell line: CEM ; value: 0.02 µM
CCOCn1c(Cc2cc(C)cc(C)c2)c(CC)c(=O)[nH]c1=O ; strain or isolate: IIIB TIBO R82913 STR-1 (RT L100I Y181C) ; mutations: RT-L100I Y181C ; cell line: CEM ; value: 0.8 µM
CN1C(=O)N(Cc2ccccc2)S(=O)(=O)c2cscc21 ; strain or isolate: NDK ; cell line: MT-4 ; value: 3.9 µM
Cc1ccnc2c1NC(=O)c1cccnc1N2C1CC1 ; strain or isolate: IIIB ; cell line: CEM ; value: 0.027 µg/mL
CCNc1cccnc1N1CCN(C(=O)c2cc3cc(OC)ccc3[nH]2)CC1 ; strain or isolate: IIIB-Pyridinone(0.1)(RT-V179N ; mutations: RT-V179N ; cell line: CEM ; value: 0.53 µg/mL
Cc1cn([C@H]2C[C@H](N=[N+]=[N-])[C@@H](CO)O2)c(=O)[nH]c1=O ; strain or isolate: G780-1 Clinical isolate ZDV-resistant ; mutations: RT-M41L D67N K70R T215F K219Q ; cell line: HT4 + HeLa ; value: 1.8 µM
CC(C)=CCOc1cc(NC(=S)c2ccsc2C)ccc1Cl ; strain or isolate: IIIB ; cell line: CEM ; value: 0.0018 ± 0.0004 µM
Cc1cn([C@@H]2O[C@H](CO[Si](C)(C)C(C)(C)C)[C@@]3(OS(=O)(=O)C=C3N)[C@H]2O[Si](C)(C)C(C)(C)C)c(=O)[nH]c1=O ; strain or isolate: IIIB ; cell line: CEM ; value: 0.05 µM
Cc1cn([C@@H]2O[C@H](CO[Si](C)(C)C(C)(C)C)C3(OS(=O)(=O)C=C3N)[C@H]2O[Si](C)(C)C(C)(C)C)c(=O)n(C)c1=O ; strain or isolate: IIIB ; mutations: RT-K103N ; cell line: CEM ; value: 0.138 µg/mL
Cc1ccnc2c1NC(=O)c1cccnc1N2C1CC1 ; strain or isolate: IIIB ; mutations: RT-V179D ; cell line: CEM ; value: 0.02 µg/mL
Cc1occc1C(=S)Nc1ccc(Cl)c(/C=N/OC(C)(C)C)c1 ; strain or isolate: IIIB ; mutations: RT-E138K ; cell line: CEM ; value: 0.1 µM
O=C1N(Cc2ccccc2)c2cscc2S(=O)(=O)N1Cc1ccccc1 ; strain or isolate: HE ; cell line: MT-4 ; value: 8.3 µM
O=c1[nH]cnc2c1ncn2[C@H]1CC[C@@H](CO)O1 ; strain or isolate: IIIB-Nevirapine(1.0)(RT-Y181C) ; mutations: RT-Y181C ; cell line: CEM ; value: 20 µM
CC(C)Nc1cccnc1N1CCN(C(=O)c2cc3cc(NS(C)(=O)=O)ccc3[nH]2)CC1 ; strain or isolate: IIIB ; mutations: RT-L100I ; cell line: CEM ; value: 1.33 ± 0.58 µM
CC(C)=CCN1Cc2cc(Cl)cc3[nH]c(=S)n(c23)C[C@@H]1C ; strain or isolate: Pyr(RT-Y181C) ; mutations: RT-Y181C ; cell line: CEM ; value: 6.2 µM
Nc1ncnc2c1ncn2CCOCP(=O)(O)O ; strain or isolate: IIIB ; cell line: C8166 ; value: 10 µM
COC(=O)[C@H](C)NP(=O)(OC[C@@H]1CC[C@H](n2cnc3c(N)ncnc32)O1)Oc1ccccc1 ; strain or isolate: IIIB ; cell line: MOLT-4/C8 + MOLT-4 ; value: 0.016 µM
Nc1ccn([C@H]2CC[C@@H](CO)O2)c(=O)n1 ; strain or isolate: U455 ; cell line: U-937 ; value: 0.05 µM
Cc1cn([C@@H]2O[C@H](CO[Si](C)(C)C(C)(C)C)C3(OS(=O)(=O)C=C3N)[C@H]2O[Si](C)(C)C(C)(C)C)c(=O)n(C)c1=O ; strain or isolate: IIIB ; mutations: RT-C181I ; cell line: CEM ; value: >30 µM
CC(C)=CCN1Cc2cccc3[nH]c(=S)n(c23)C[C@@H]1C ; strain or isolate: IIIB TIBO R82913 STR-1 (RT L100I Y181C) ; mutations: RT-L100I Y181C ; cell line: CEM ; value: ≥5 µM
CCn1c(=O)c(C)cn([C@@H]2O[C@H](CO[Si](C)(C)C(C)(C)C)C3(OS(=O)(=O)C=C3N)[C@H]2O[Si](C)(C)C(C)(C)C)c1=O ; strain or isolate: IIIB ; mutations: RT-E138K ; cell line: CEM ; value: >75 µM
N#CCN1C(=O)N(Cc2cccc(F)c2)S(=O)(=O)c2cscc21 ; strain or isolate: IIIB ; cell line: MT-4 ; value: 0.09 µM
CC(C)=CCN1Cc2cc(Cl)cc3[nH]c(=S)n(c23)C[C@@H]1C ; strain or isolate: IIIB TIBO R82150-resistant (RT L100I) ; mutations: RT-L100I ; cell line: CEM ; value: 1.7 µM
COC(=O)[C@H](C)NP(=O)(OC[C@@H]1C=C[C@H](n2cnc3c(N)ncnc32)O1)Oc1ccccc1 ; strain or isolate: IIIB ; cell line: C8166 ; value: 0.055 µM
CCOCn1c(Cc2ccccc2)c(CC)c(=O)[nH]c1=O ; strain or isolate: IIIB TIBO R82913-resistant (RT K103N) ; mutations: RT-K103N ; cell line: CEM ; value: 0.24 µg/mL
CC(C)Nc1cccnc1N1CCN(C(=O)c2cc3ccccc3[nH]2)CC1 ; strain or isolate: Pyr(RT-Y181C) ; mutations: RT-Y181C ; cell line: CEM ; value: 0.9 µM
CC(C)=CCN1Cc2cc(Cl)cc3[nH]c(=S)n(c23)C[C@@H]1C ; strain or isolate: IIIB TIBO R82913-resistant (RT K103N) ; mutations: RT-K103N ; cell line: CEM ; value: 4.3 µg/mL
C=C(C)OC(=O)N1c2cc(Cl)ccc2NC(=S)C1(C)C ; strain or isolate: Pyr/BHAP(RT-Y181I) ; mutations: RT-Y181I ; cell line: CEM ; value: 5.3 µM
C[C@@H](Cn1cnc2c(N)nc(N)nc21)OCP(=O)(O)O ; strain or isolate: IIIB ; cell line: C8166 ; value: 20 µM
CCn1c(=O)c(C)cn([C@@H]2O[C@H](CO[Si](C)(C)C(C)(C)C)C3(OS(=O)(=O)C=C3N)[C@H]2O[Si](C)(C)C(C)(C)C)c1=O ; strain or isolate: IIIB TIBO R82913 STR-1 (RT L100I Y181C) ; mutations: RT-L100I Y181C ; cell line: CEM ; value: >50 µM
Cc1occc1C(=S)Nc1ccc(Cl)c(C(=O)OC2CCCC2)c1 ; strain or isolate: IIIB ; mutations: RT-Y188L ; cell line: CEM ; value: 2.5 µg/mL
CCN1C(=O)N(Cc2ccccc2)S(=O)(=O)c2cscc21 ; mutations: RT-E138K ; cell line: CEM ; value: 310.2 µM
Cc1cn([C@H]2C[C@H](N=[N+]=[N-])[C@@H](CO)O2)c(=O)[nH]c1=O ; strain or isolate: IIIB ; mutations: RT-K103N ; cell line: CEM ; value: 0.005 µg/mL
Cc1c(Sc2ccccc2)n(COCCO)c(=O)[nH]c1=O ; strain or isolate: IIIB ; cell line: CEM ; value: 7.5 µg/mL
C[C@H](Cn1cnc2c(N)ncnc21)OCP(=O)(O)O ; strain or isolate: IIIB ; mutations: RT-V179D ; cell line: CEM ; value: 0.9 µg/mL
CC(C)Nc1cccnc1N1CCN(C(=O)c2cc3ccccc3[nH]2)CC1 ; strain or isolate: IIIB ; mutations: RT-Y181C ; cell line: CEM ; value: 1 µM
Cc1cn([C@@H]2O[C@H](CO[Si](C)(C)C(C)(C)C)C3(OS(=O)(=O)C=C3N)[C@H]2O[Si](C)(C)C(C)(C)C)c(=O)n(C)c1=O ; strain or isolate: IIIB ; cell line: PBL ; value: 0.046 µg/mL
Nc1ncnc2c1ncn2CCOCP(=O)(O)O ; strain or isolate: IIIB-BHAP)(0.1)(RT-L100I ; mutations: RT-L100I ; cell line: CEM ; value: 19 µM
Cc1cn([C@H]2C[C@H](N=[N+]=[N-])[C@@H](CO)O2)c(=O)[nH]c1=O ; strain or isolate: IIIB TIBO R82913 STR-B02 (RT L100I E138K) ; mutations: RT-L100I E138K ; cell line: CEM ; value: 0.035 µM
Cc1cn([C@H]2C[C@H](N=[N+]=[N-])[C@@H](CO)O2)c(=O)[nH]c1=O ; strain or isolate: IIIB-TIBO(0.5)(RT-L100I) ; mutations: RT-L100I ; cell line: CEM ; value: 0.004 µM
CCc1cc(NCc2nc3c(Cl)ccc(Cl)c3o2)c(=O)[nH]c1C ; strain or isolate: IIIB ; mutations: RT-Y181C ; cell line: CEM ; value: 10 µM

ECn is the concentration giving n% inhibition of infection, replication or growth.